Data reported in US20220089698A1, “ANTIBODIES THAT TARGET HIV GP120 AND METHODS OF USE” (published 2022).

Key:
Experiment in all cases: cell-based or functional assay
[1] = target: HIV-1 envelope glycoprotein gp120 of virus CHO77 (HIV-1 subtype B, virus CHO77)
[2] = target: HIV-1 envelope glycoprotein gp120 of virus BaL (HIV-1 BaL (lab adapted strain, subtype …))
[3] = target: HIV-1 envelope glycoprotein gp120 of virus 92US657 (HIV-1 subtype B, isolate 92US657)

Row | Binder | Virus Neutralization Potency (IC50) [1] [µg/mL] | Virus Neutralization Potency (IC50) [2] [µg/mL] | Virus Neutralization Potency (IC50) [3] [µg/mL]
1 | Antibody 1.1.4-1 (antibody, human IgG1, kappa) heavy: QVQLLQSGAAVTKPGASVRVSCEASGYNIRDYFIHWWRQAPGQGLQWVGWINPKTGQPNNPRQFQGRVSLTRHASWDFDTFSFYMDLKALRSDDTAVYFCARQRSDYWDFDVWGSGTQVTVSSASTKGPSVFPLAPSSKSTSGGTAALGCLVKDYFPEPVTVSWNSGALTSGVHTFPAVLQSSGLYSLSSVVTVPSSSLGTQTYICNVNHKPSNTKVDKKVEPKSCDKTHTCPPCPAPELLAGPDVFLFPPKPKDTLMISRTPEVTCVVVDVSHEDPEVKFNWYVDGVEVHNAKTKPREEQYNSTYRVVSVLTVLHQDWLNGKEYKCKVSNKALPLPEEKTISKAKGQPREPQVYTLPPSREEMTKNQVSLTCLVKGFYPSDIAVEWESNGQPENNYKTTPPVLDSDGSFFLYSKLTVDKSRWQQGNVFSCSVLHEALHSHYTQKSLSLSPGK light: not shown | 0.12 | 0.1 | 1.44
2 | Antibody 1.1.5-1 (antibody, human IgG1, kappa) heavy: QVQLLQSGAAVTKPGASVRVSCEASGYNIRDYFIHWWRQAPGQGLQWVGWINPKTGQPNNPRQFQGRVSLTRHASWDFDTFSFYMDLKALRSDDTAVYFCARQRSDYWDFDVWGSGTQVTVSSASTKGPSVFPLAPSSKSTSGGTAALGCLVKDYFPEPVTVSWNSGALTSGVHTFPAVLQSSGLYSLSSVVTVPSSSLGTQTYICNVNHKPSNTKVDKKVEPKSCDKTHTCPPCPAPELLAGPDVFLFPPKPKDTLMISRTPEVTCVVVDVSHEDPEVKFNWYVDGVEVHNAKTKPREEQYNSTYRVVSVLTVLHQDWLNGKEYKCKVSNKALPLPEEKTISKAKGQPREPQVYTLPPSREEMTKNQVSLTCLVKGFYPSDIAVEWESNGQPENNYKTTPPVLDSDGSFFLYSKLTVDKSRWQQGNVFSCSVLHEALHSHYTQKSLSLSPGK light: not shown | 0.12 | 0.21 | 1.93
3 | Antibody 1.1.10-1 (antibody, human IgG1, kappa) heavy: QVQLLQSGAAVTKPGASVRVSCEASGYNIRDYFIHWWRQAPGQGLQWVGWINPKTGQPNNPRQFQGRVSLTRHASWDFDTFSFYMDLKALRSDDTAVYFCARQRSDYWDFDVWGSGTQVTVSSASTKGPSVFPLAPSSKSTSGGTAALGCLVKDYFPEPVTVSWNSGALTSGVHTFPAVLQSSGLYSLSSVVTVPSSSLGTQTYICNVNHKPSNTKVDKKVEPKSCDKTHTCPPCPAPELLAGPDVFLFPPKPKDTLMISRTPEVTCVVVDVSHEDPEVKFNWYVDGVEVHNAKTKPREEQYNSTYRVVSVLTVLHQDWLNGKEYKCKVSNKALPLPEEKTISKAKGQPREPQVYTLPPSREEMTKNQVSLTCLVKGFYPSDIAVEWESNGQPENNYKTTPPVLDSDGSFFLYSKLTVDKSRWQQGNVFSCSVLHEALHSHYTQKSLSLSPGK light: not shown | 0.07 | 0.1 | 0.6
4 | Antibody 1.1.11-1 (antibody, human IgG1, kappa) heavy: QVQLLQSGAAVTKPGASVRVSCEASGYNIRDYFIHWWRQAPGQGLQWVGWINPKTGQPNNPRQFQGRVSLTRHASWDFDTFSFYMDLKALRSDDTAVYFCARQRSDYWDFDVWGSGTQVTVSSASTKGPSVFPLAPSSKSTSGGTAALGCLVKDYFPEPVTVSWNSGALTSGVHTFPAVLQSSGLYSLSSVVTVPSSSLGTQTYICNVNHKPSNTKVDKKVEPKSCDKTHTCPPCPAPELLAGPDVFLFPPKPKDTLMISRTPEVTCVVVDVSHEDPEVKFNWYVDGVEVHNAKTKPREEQYNSTYRVVSVLTVLHQDWLNGKEYKCKVSNKALPLPEEKTISKAKGQPREPQVYTLPPSREEMTKNQVSLTCLVKGFYPSDIAVEWESNGQPENNYKTTPPVLDSDGSFFLYSKLTVDKSRWQQGNVFSCSVLHEALHSHYTQKSLSLSPGK light: not shown | 0.13 | 0.09 | 1.17
5 | Antibody 1.1.12-1 (antibody, human IgG1, kappa) heavy: QVQLLQSGAAVTKPGASVRVSCEASGYNIRDYFIHWWRQAPGQGLQWVGWINPKTGQPNNPRQFQGRVSLTRHASWDFDTFSFYMDLKALRSDDTAVYFCARQRSDYWDFDVWGSGTQVTVSSASTKGPSVFPLAPSSKSTSGGTAALGCLVKDYFPEPVTVSWNSGALTSGVHTFPAVLQSSGLYSLSSVVTVPSSSLGTQTYICNVNHKPSNTKVDKKVEPKSCDKTHTCPPCPAPELLAGPDVFLFPPKPKDTLMISRTPEVTCVVVDVSHEDPEVKFNWYVDGVEVHNAKTKPREEQYNSTYRVVSVLTVLHQDWLNGKEYKCKVSNKALPLPEEKTISKAKGQPREPQVYTLPPSREEMTKNQVSLTCLVKGFYPSDIAVEWESNGQPENNYKTTPPVLDSDGSFFLYSKLTVDKSRWQQGNVFSCSVLHEALHSHYTQKSLSLSPGK light: not shown | 0.12 | 0.06 | 1.64
6 | Antibody 1.1.13-1 (antibody, human IgG1, kappa) heavy: QVQLLQSGAAVTKPGASVRVSCEASGYNIRDYFIHWWRQAPGQGLQWVGWINPKTGQPNNPRQFQGRVSLTRHASWDFDTFSFYMDLKALRSDDTAVYFCARQRSDYWDFDVWGSGTQVTVSSASTKGPSVFPLAPSSKSTSGGTAALGCLVKDYFPEPVTVSWNSGALTSGVHTFPAVLQSSGLYSLSSVVTVPSSSLGTQTYICNVNHKPSNTKVDKKVEPKSCDKTHTCPPCPAPELLAGPDVFLFPPKPKDTLMISRTPEVTCVVVDVSHEDPEVKFNWYVDGVEVHNAKTKPREEQYNSTYRVVSVLTVLHQDWLNGKEYKCKVSNKALPLPEEKTISKAKGQPREPQVYTLPPSREEMTKNQVSLTCLVKGFYPSDIAVEWESNGQPENNYKTTPPVLDSDGSFFLYSKLTVDKSRWQQGNVFSCSVLHEALHSHYTQKSLSLSPGK light: not shown | 0.09 | 0.19 | 1.43
7 | Antibody 1.1.17-1 (antibody, human IgG1, kappa) heavy: QVQLLQSGAAVTKPGASVRVSCEASGYNIRDYFIHWWRQAPGQGLQWVGWINPKTGQPNNPRQFQGRVSLTRHASWDFDTFSFYMDLKALRSDDTAVYFCARQRSDYWDFDVWGSGTQVTVSSASTKGPSVFPLAPSSKSTSGGTAALGCLVKDYFPEPVTVSWNSGALTSGVHTFPAVLQSSGLYSLSSVVTVPSSSLGTQTYICNVNHKPSNTKVDKKVEPKSCDKTHTCPPCPAPELLAGPDVFLFPPKPKDTLMISRTPEVTCVVVDVSHEDPEVKFNWYVDGVEVHNAKTKPREEQYNSTYRVVSVLTVLHQDWLNGKEYKCKVSNKALPLPEEKTISKAKGQPREPQVYTLPPSREEMTKNQVSLTCLVKGFYPSDIAVEWESNGQPENNYKTTPPVLDSDGSFFLYSKLTVDKSRWQQGNVFSCSVLHEALHSHYTQKSLSLSPGK light: not shown | 0.1 | 0.08 | 1.27
8 | Antibody 1.1.19-1 (antibody, human IgG1, kappa) heavy: QVQLLQSGAAVTKPGASVRVSCEASGYNIRDYFIHWWRQAPGQGLQWVGWINPKTGQPNNPRQFQGRVSLTRHASWDFDTFSFYMDLKALRSDDTAVYFCARQRSDYWDFDVWGSGTQVTVSSASTKGPSVFPLAPSSKSTSGGTAALGCLVKDYFPEPVTVSWNSGALTSGVHTFPAVLQSSGLYSLSSVVTVPSSSLGTQTYICNVNHKPSNTKVDKKVEPKSCDKTHTCPPCPAPELLAGPDVFLFPPKPKDTLMISRTPEVTCVVVDVSHEDPEVKFNWYVDGVEVHNAKTKPREEQYNSTYRVVSVLTVLHQDWLNGKEYKCKVSNKALPLPEEKTISKAKGQPREPQVYTLPPSREEMTKNQVSLTCLVKGFYPSDIAVEWESNGQPENNYKTTPPVLDSDGSFFLYSKLTVDKSRWQQGNVFSCSVLHEALHSHYTQKSLSLSPGK light: not shown | 0.12 | 0.09 | 0.9
9 | Antibody 1.1.26-1 (antibody, human IgG1, kappa) heavy: QVQLLQSGAAVTKPGASVRVSCEASGYNIRDYFIHWWRQAPGQGLQWVGWINPKTGQPNNPRQFQGRVSLTRHASWDFDTFSFYMDLKALRSDDTAVYFCARQRSDYWDFDVWGSGTQVTVSSASTKGPSVFPLAPSSKSTSGGTAALGCLVKDYFPEPVTVSWNSGALTSGVHTFPAVLQSSGLYSLSSVVTVPSSSLGTQTYICNVNHKPSNTKVDKKVEPKSCDKTHTCPPCPAPELLAGPDVFLFPPKPKDTLMISRTPEVTCVVVDVSHEDPEVKFNWYVDGVEVHNAKTKPREEQYNSTYRVVSVLTVLHQDWLNGKEYKCKVSNKALPLPEEKTISKAKGQPREPQVYTLPPSREEMTKNQVSLTCLVKGFYPSDIAVEWESNGQPENNYKTTPPVLDSDGSFFLYSKLTVDKSRWQQGNVFSCSVLHEALHSHYTQKSLSLSPGK light: not shown | 0.13 | 0.07 | 1.49
10 | Antibody 1.1.27-1 (antibody, human IgG1, kappa) heavy: QVQLLQSGAAVTKPGASVRVSCEASGYNIRDYFIHWWRQAPGQGLQWVGWINPKTGQPNNPRQFQGRVSLTRHASWDFDTFSFYMDLKALRSDDTAVYFCARQRSDYWDFDVWGSGTQVTVSSASTKGPSVFPLAPSSKSTSGGTAALGCLVKDYFPEPVTVSWNSGALTSGVHTFPAVLQSSGLYSLSSVVTVPSSSLGTQTYICNVNHKPSNTKVDKKVEPKSCDKTHTCPPCPAPELLAGPDVFLFPPKPKDTLMISRTPEVTCVVVDVSHEDPEVKFNWYVDGVEVHNAKTKPREEQYNSTYRVVSVLTVLHQDWLNGKEYKCKVSNKALPLPEEKTISKAKGQPREPQVYTLPPSREEMTKNQVSLTCLVKGFYPSDIAVEWESNGQPENNYKTTPPVLDSDGSFFLYSKLTVDKSRWQQGNVFSCSVLHEALHSHYTQKSLSLSPGK light: not shown | 0.1 | 0.12 | 1.25
11 | Antibody 1.33.1-1 (antibody, human IgG1, kappa) heavy: QVQLVQSGAEVKKPGASVRVSCKASGYNIRDYFIHWWRQAPGQGLQWVGWINPKTGQPNNPRQFQGRVTLTRHASWDFDTFSFYMDLKALRSDDTATYFCARQRSDYWDFDVWGSGTQVTVSSASTKGPSVFPLAPSSKSTSGGTAALGCLVKDYFPEPVTVSWNSGALTSGVHTFPAVLQSSGLYSLSSVVTVPSSSLGTQTYICNVNHKPSNTKVDKKVEPKSCDKTHTCPPCPAPELLAGPDVFLFPPKPKDTLMISRTPEVTCVVVDVSHEDPEVKFNWYVDGVEVHNAKTKPREEQYNSTYRVVSVLTVLHQDWLNGKEYKCKVSNKALPLPEEKTISKAKGQPREPQVYTLPPSREEMTKNQVSLTCLVKGFYPSDIAVEWESNGQPENNYKTTPPVLDSDGSFFLYSKLTVDKSRWQQGNVFSCSVLHEALHSHYTQKSLSLSPGK light: not shown | 0.17 | 0.11 | 0.95
